PubChem BioAssay AID504761 | Drosophila RNAi Screening Center, 2011
The screen tested about 22,000 reagents; shown is a random part of those that have a named target and a result. Over the whole deposit, 116 (0.52%) are marked active. 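Calls depend on retest data that are not deposited; infection was ranked per plate without normalising between plates; the unit of the infection score is not given.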 Raw values vary from plate to plate and are shown uncorrected. The numbers tell different reagents against one gene apart. A plus sign joins genes that one reagent is predicted to hit. Not stated in the record: the amount of reagent, the time to read-out.

- Test: 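Genome-wide fly cell screen for genes dengue virus requires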 (primary screen)
- Cell system: D.Mel-2 cells from Drosophila
- Reagents: long dsRNA against Drosophila genes
- Challenge: infection with dengue virus type 2; dose and infection time not stated
- Detection: 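Per well on two replicate plates, imaging gave the percent of cells positive for viral envelope protein, ranked by infection, and a nuclear count of cells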
- Scale: infection score: higher = more virus-infected cells; cell count: higher = more cells in the well
- Hit rule: 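Very low infection ranking in both replicate wells (chance probability at most 0.065), then a retest showing infection dropped 1.5-fold or more at p below 0.05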
- Calls: active = confirmed: knock-down lowers infection; inactive = not picked or not confirmed

no.	gene	reagent	infection score, replicate 1	infection score, replicate 2	cell count, replicate 1	cell count, replicate 2	Outcome
1	alpha-Cat	1	17.8	12.7	5158	4293	inactive
2	SdhA	1	10.6	8.4	6472	6382	inactive
3	Lnk	1	2.32	1.85	6645	6374	inactive
4	Suv3	1	20.1	28.7	2737	5074	inactive
5	CG5986	1	1.92	1.89	6051	6077	inactive
6	CG5986	2	6.13	1.73	6918	3242	inactive
7	Kif19A	1	24.3	3.51	6477	6219	inactive
8	Kif19A	2	1.29	1.16	6219	6281	inactive
9	CG15878	1	2.28	13.2	7225	6495	inactive
10	CG15878	2	10.8	7.5	5328	4574	inactive
11	Poxm	1	2.86	5.94	6358	6536	inactive
12	Poxm	2	1.34	4.24	6122	6706	inactive
13	Rab9Db + Rab9Fa	1	2.38	6.89	6296	5933	inactive

Continued, starting with the last 2 of the part before.
no.	gene	reagent	infection score, replicate 1	infection score, replicate 2	cell count, replicate 1	cell count, replicate 2	Outcome
12	Poxm	2	1.34	4.24	6122	6706	inactive
13	Rab9Db + Rab9Fa	1	2.38	6.89	6296	5933	inactive
14	GluRIIE	1	6.12	6.11	6063	5692	inactive
15	GluRIIE	2	7.53	6.97	6843	6962	inactive
16	CG31321	1	3.8	1.46	6292	6374	inactive
17	CG31321	2	9.86	7.28	6734	6635	inactive
18	CG15306	1	9.14	10.5	1609	4985	inactive
19	CG15306	2	2.94	0.39	6729	6995	inactive
20	CG15306	3	4.81	6.96	6300	6282	inactive
21	spn-B	1	2.56	4.37	6640	6434	inactive
22	spn-B	2	7.17	22.3	5314	6907	inactive
23	Plc21C	1	3.2	17.1	5978	5395	inactive
24	CG33155 + mRpL53	1	3.5	4.56	6023	6005	inactive
25	CG33155 + mRpL53	2	34.6		4233	235	inactive
26	moi + Tgs1	1	2.8	1.28	6721	6460	inactive
27	CG33278	1	1.74	6.65	6221	5532	inactive
28	CG33278	2	1.52	1.26	5539	5634	inactive
29	CG11586	1	2.05	3.56	5990	6706	inactive
30	CG11586	2	39.5	17.7	5227	6444	inactive
31	Cyp303a1	1	11.7	15.4	3182	5775	inactive
32	CG17239	1	6.41	1.62	6118	6189	inactive
33	CG2201	1	7.13	15.7	6139	1201	inactive
34	CG31495	1	8.81	13.6	6444	6101	inactive
35	CG31495	2	22.1	16.9	5879	4900	inactive
36	imd	1	9.36	11	6687	6339	inactive
37	imd	2	12.3	3.64	6051	6121	inactive
38	CG13193	1	21	12.3	5132	6545	inactive
39	CG31248	1	5.22		6818	478	inactive
